In publication PMC3176662 (Journal of biomolecular screening, 2011) one finds IC50 data, which are given here for one compound.

The chains behind the UniProt entries cited, without tags or fusion partners. Residues count along the entry.
UniProt Q5NHE7, 1-805: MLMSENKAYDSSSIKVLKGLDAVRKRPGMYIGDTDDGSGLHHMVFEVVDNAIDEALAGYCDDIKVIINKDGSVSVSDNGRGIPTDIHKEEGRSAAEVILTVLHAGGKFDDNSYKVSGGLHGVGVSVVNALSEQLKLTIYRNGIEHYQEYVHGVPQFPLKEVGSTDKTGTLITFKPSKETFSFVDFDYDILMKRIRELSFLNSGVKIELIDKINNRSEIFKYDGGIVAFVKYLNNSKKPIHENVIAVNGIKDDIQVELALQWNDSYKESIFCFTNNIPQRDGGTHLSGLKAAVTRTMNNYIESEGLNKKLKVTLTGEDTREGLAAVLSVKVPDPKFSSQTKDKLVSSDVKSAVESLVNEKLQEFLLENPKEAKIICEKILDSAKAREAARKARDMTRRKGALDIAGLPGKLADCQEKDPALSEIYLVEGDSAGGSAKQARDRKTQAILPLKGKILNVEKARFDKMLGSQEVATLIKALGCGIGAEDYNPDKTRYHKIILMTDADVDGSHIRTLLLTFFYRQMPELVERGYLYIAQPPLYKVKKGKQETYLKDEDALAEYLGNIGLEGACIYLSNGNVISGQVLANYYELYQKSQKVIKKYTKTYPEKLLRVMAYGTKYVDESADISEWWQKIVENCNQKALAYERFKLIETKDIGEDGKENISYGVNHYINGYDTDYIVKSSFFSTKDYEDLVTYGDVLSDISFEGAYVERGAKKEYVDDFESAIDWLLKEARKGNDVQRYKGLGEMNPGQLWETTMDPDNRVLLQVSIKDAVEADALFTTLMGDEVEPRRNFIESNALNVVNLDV

For this experiment, the target named is Francisella tularensis GyrB (ATP binding domain) (Francisella tularensis subsp. tularensis, UniProt Q5NHE7). The experiment is described as follows: biochemical.

As a reminder, the IC50 is the concentration that gives 50% inhibition. The low end stands for higher potency, the high end for lower potency.

Take `CO[C@@H]1[C@@H](OC(N)=O)[C@@H](O)[C@H](Oc2ccc3c(O)c(NC(=O)c4ccc(O)c(CC=C(C)C)c4)c(=O)oc3c2C)OC1(C)C` [novobiocin]: the IC50 is 33 nM.
